Compound potency records, mixed from different reports. Data source: NIAID ChemDB in PubChem.

Shared fields: tests in culture; organism: HIV-1

a–b is a range or a potency band.

structure	changes	read by	endpoint	strain or isolate	cells	value
COc1ncc(OC)c2c(C(=O)C(=O)N3CCC(=C(c4ccccc4)c4ccco4)CC3)c[nH]c12		luciferase	EC50		HeLa	<1 µM
O=C(O)c1cc(-n2cccc2)ccc1Cl		p24	EC90	RF X4 CLADE B	MT-2	8.73 µM
N#Cc1ccc(Nc2nc(Oc3ccc(-c4ccc(C#N)cc4)c(F)c3F)c3sccc3n2)cc1	L100I	MTT	EC50	IIIB	MT-4	0.052 µM
COc1ccc(S(=O)(=O)N(CC[C@H](O)CN(CC(C)C)S(=O)(=O)c2ccc(OC)cc2)CC2CCCC2)cc1		p24	EC50	IIIB	CEM	<0.1 µM
CC1(C)c2nc(C(=O)NCc3ccc(F)cc3)c(O)c(=O)n2CCN1Cc1cnco1		p24	EC50		MT-4	<1 µM
CC(=O)N(C)CCC1CN(Cc2ccc(F)cc2)C(=O)c2c(O)c(=O)n(C(C)C)c(=O)n21		p24	EC95		MT-4	<10 µM
CC1CN(C(=O)C(=O)c2c[nH]c3cccc(F)c23)CC(C)N1C(=O)c1ccccc1		luciferase	EC50		HeLa + HELA CD4+/CCR5	<10 µM
CCc1c(Cc2cc(C)cc(C)c2)n(COCC2CC=CCC2)c(=O)[nH]c1=O	RT-Y181C	cytopathic effect / MTT	EC50	NNRTI-resistant (RT Y181C) N119	MT-4	>100 µM
O=c1[nH]c(=O)n([C@H]2C=C[C@@H](CO)O2)cc1CO		RT activity	EC50	IIIB	MT-4	0.22 µM
N#CC1=CC2Nc3ccccc3C2N(c2ccc([N+](=O)[O-])cc2)C1=O		GFP / fluorescence	EC50	B-92US026	PBMC	0.29 µM
Cn1cccc1C(=S)Nc1ccc(Cl)c(/C=N/OC(C)(C)C)c1	RT-Y181C	syncytia	EC50		CEM	0.126 µM
CC(C)CN(C[C@@H](O)[C@H](Cc1ccccc1)NC(=O)O[C@H]1CCOC1)S(=O)(=O)c1ccc2ncn(C)c2c1		cytopathic effect / MTT	EC50	LAI WT	MT-4	0.02 µM
CC(C)CN(C[C@@H](O)[C@H](Cc1ccccc1)NC(=O)O[C@H]1CO[C@H]2OCC[C@H]21)S(=O)(=O)c1ccc2nc(NC3CCN(C4CCCC4)CC3)sc2c1	R41E	reporter gene	EC50	T21729	MT-4	110 nM
CCc1c(Cc2cc(C)cc(C)c2)n(COC2C=CCCC2)c(=O)[nH]c1=O	RT-K103N Y181C	cytopathic effect / MTT	EC50	NNRTI-resistant (RT K103N Y181C) A17	MT-4	>100 µM
COC1CCC(S(=O)(=O)N(CC2CCCC2)C[C@@H](O)CN(CCc2ccccc2)C(=O)c2ccccc2)CO1		p24	EC50	IIIB	CEM	<1 µM
Cc1occc1C(=S)Nc1ccc(Cl)c(/C=N/OCc2ccccc2)c1		syncytia	EC50	IIIB	CEM	0.78 µM
COc1cnc(-n2ccc(C)n2)c2[nH]cc(C(=O)C(=O)N3CCC(=C(c4ccccc4)c4cccc(F)c4)CC3)c12		luciferase	EC50		HeLa	<1 µM
CC(C)OC(=O)c1cc(NC(=S)c2ccsc2)ccc1Cl	RT-L100I	syncytia	EC50		CEM	13 µM
O=C1Nc2ccc(Cl)cc2[C@@](C#CC2CC2)(C(F)(F)F)O1	L100I	MTT	EC50	IIIB	MT-4	0.0444 µM
COc1cnc(-c2ccc(O)cc2)c2[nH]cc(C(=O)C(=O)N3CCC(=C(C#N)c4ccccc4)CC3)c12		luciferase	EC50		HeLa	<1 µM
COC[C@@H](c1ccc(C(F)(F)F)cc1)N1CCN(C2(C)CCN(C(=O)c3c(C)ncnc3C)CC2)C[C@@H]1C	M518V F519L V535M		EC50	S	PBMC	0.00071 µM
Cc1ccc(CNC(=O)c2nc3n(c(=O)c2O)CCNCC3N(C)C(=O)C(=O)N(C)C)cc1Cl		p24	EC50		MT-4	<1 µM
CC1CC(C)CN(S(=O)(=O)c2ccccc2[N+](=O)[O-])C1		GFP / fluorescence	EC50	4755-5	HeLa	0.31 µM
CC(=O)Oc1ccc2[nH]cc(C(=O)C(=O)N3CCN(C(=O)c4ccccc4)CC3)c2c1		RT activity	EC50	BRU	MT-2	<10 µM
Cc1occc1C(=S)Nc1ccc(Cl)c(OC(=O)OC(C)C)c1	RT-V106A	syncytia	EC50		CEM	9 µM
COc1ncc(OC)c2c(C(=O)C(=O)N3CCC(=C(C#N)c4ccccc4)CC3)c[nH]c12		luciferase	EC50		HeLa	<1 µM
O=C(c1ccccc1)N(CCc1ccccc1)C[C@H](O)CN(CC1CCCC1)S(=O)(=O)C1CCS(=O)(=O)CC1		p24	EC50	IIIB	CEM	<1 µM
CC(=O)N1Cn2c(nc(C(=O)NCc3ccc(F)cc3)c(O)c2=O)C1(C)C		p24	EC95		MT-4	<50 µM
O=C(C(=O)N1CCN(C(=O)c2ccccc2)CC1)c1c[nH]c2ccccc12		RT activity	EC50	BRU	MT-2	<10 µM
CCO[C@@H]1Cc2cc(C(F)(F)F)ccc2C1N1CCN(C2(C)CCN(C(=O)c3c(C)ncnc3C)CC2)C[C@@H]1C		p24	EC50	92/BR/003	PBMC	0.001 µM
COc1cc2ccnc3c2c(c1OC(=O)c1ccc(CCl)cc1)N(C)C=C3			EC50			4 µM
Cc1ccsc1C(=S)Nc1ccc(Cl)c(/C=N/OC(C)(C)C)c1	RT-V106A	syncytia	EC50		CEM	0.54 µM
CCCc1c(Cc2ccccc2)n(COCC2CC=CCC2)c(=O)[nH]c1=O		cytopathic effect / MTT	EC50	IIIB	MT-4	0.3 µM
CC(C)OC(=O)c1cc(NC(=S)c2cccs2)ccc1Cl	RT-E138K	syncytia	EC50		CEM	0.84 µM
CCCc1c(Cc2cc(C)cc(C)c2)n(COC/C=C/c2ccccc2)c(=O)[nH]c1=O		cytopathic effect / MTT	EC50	IIIB	MT-4	0.06 µM
Cc1nc(CCCCCCC(=O)c2ccccc2)n2nc(NCCCCCCCCCCNCc3cn([C@H]4C=C[C@@H](CO)O4)c(=O)[nH]c3=O)ccc12		RT activity	EC50	Nevirapine-resistant	CEM + CEM-SS	0.1 µM
Cc1cc(CNC(=O)c2nc3n(c(=O)c2O)CCN(C)CC3N(C)C(=O)C(=O)N(C)C)ccc1F		p24	EC95		MT-4	<1 µM
O=C(C(=O)N1CCN(C(=O)c2cccc(S)c2)CC1)c1c[nH]c2cccc(Cl)c12		luciferase	EC50		HeLa + HELA CD4+/CCR5	<10 µM
CC1(C)CC(=O)C(S(=O)(=O)N(CC2CCCC2)C[C@@H](O)CN(CCc2ccccc2)C(=O)c2ccccc2)C(=O)S1(=O)=O		p24	EC50	IIIB	CEM	<1 µM
CC(=O)Nc1nc2ccc(S(=O)(=O)N(CC(C)C)C[C@@H](O)[C@H](Cc3ccccc3)NC(=O)OC3COC4OCCC34)cc2[nH]1		cytopathic effect / MTT	EC50	LAI WT	MT-4	0.2 µM
COc1cccc(C(=O)Oc2c(OC)cc3ccnc4c3c2N(C)C=C4)c1			EC50			33.7 µM
Cc1nc(CCCCCCC(=O)c2ccccc2)n2nc(NCCCCCCN)ccc12		RT activity	EC50	LAI	CEM + CEM TK-	9 µM
COc1ncc(OC)c2c(C(=O)C(=O)N3CCC(=C(c4ccccc4)c4cnccn4)CC3)c[nH]c12		luciferase	EC50		HeLa	<1 µM
COc1cc2ccnc3c2c(c1OC(=O)c1ccc(C)cc1)N(C)C=C3			EC50			9.2 µM
N#Cc1ccc(Nc2nc(Oc3c(F)cc(-c4ccc(C#N)cc4)cc3F)c3sccc3n2)cc1	Y188L	MTT	EC50	IIIB	MT-4	>20.3 µM
O=C(NCc1ccc(F)cc1)c1nc2n(c(=O)c1O)CCN(Cc1ccccc1)CC2		p24	EC50		MT-4	<50 µM
CC(C)OC(=O)c1cc(NC(=S)c2ccco2)ccc1Cl	RT-V106A	syncytia	EC50		CEM	21 µM
COc1cccc2[nH]cc(C(=O)C(=O)N3CCN(C(=O)c4ccccc4)C[C@H]3C)c12		virus yield	EC50	IIIB	MT-2/CXCR4	0.0394 µM
COc1ccc(S(=O)(=O)N(CC(C)C)CC(O)CN2CSC[C@H]2C(=O)NC(C)(C)C)cc1		p24	EC50	IIIB	CEM	<1 µM
CN1C(C)(C)CC(n2c(=O)c(O)c3n(c2=O)CCN(Cc2ccc(F)cc2)C3=O)CC1(C)C		p24	EC50		MT-4	<10 µM
COC(=O)Nc1nc2ccc(S(=O)(=O)N(CC(C)C)C[C@@H](O)[C@H](Cc3ccccc3)NC(=O)O[C@H]3CO[C@H]4OCC[C@H]43)cc2[nH]1		cytopathic effect / MTT	EC50	LAI WT	MT-4	0.01 µM
COc1ncc(OC)c2c(C(=O)C(=O)N3CCC(=C(c4ccccc4)c4nnc(C(F)(F)F)o4)CC3)c[nH]c12		luciferase	EC50		HeLa	<1 µM
CCCc1c(Cc2cc(C)cc(C)c2)n(COC/C(C)=C/c2ccccc2)c(=O)[nH]c1=O		cytopathic effect / MTT	EC50	IIIB	MT-4	0.03 µM
COc1ccccc1C(=S)Nc1ccc(Cl)c(C(=O)OC(C)C)c1	RT-Y181C	syncytia	EC50		CEM	12 µM
Cc1cc(-c2ccc(C#N)cc2)cc(Cl)c1Oc1nc(Nc2ccc(C#N)cc2)nc2ccsc12	Y181C	MTT	EC50	IIIB	MT-2	0.0487 µM
Cc1nc(CCCCCCC(=O)c2ccccc2)n2nc(NCCCCCCCCCCCCNCc3cn([C@H]4C=C[C@@H](CO)O4)c(=O)[nH]c3=O)ccc12		RT activity	EC50	IIIB	MT-4	0.12 µM
CC1=C(C(=S)Nc2ccc(Cl)c(C=NOC(C)(C)C)c2)CCCO1	RT-Y188L	syncytia	EC50		CEM	2.7 µM
O=C(C(=O)N1CCC(=C(c2ccccc2)c2ccccc2)CC1)c1c[nH]c2ccccc12		luciferase	EC50		HeLa	1–5 µM
CC1(C)c2nc(C(=O)NCc3ccc(F)cc3)c(O)c(=O)n2CCN1CC(N)=O		p24	EC50		MT-4	<1 µM
Cc1occc1C(=S)Nc1ccc(Cl)c(C(=O)OC2CCCCC2)c1		syncytia	EC50	IIIB	CEM	0.01 µM
C[C@@H]1CN(C(=O)c2ccccc2)CCN1C(=O)C(=O)c1c[nH]c2c(C(=O)O)ccc(F)c12		luciferase	EC50		HeLa + HELA CD4+/CCR5	<10 µM
CCCCCc1ccc(C(=O)Oc2c(OC)cc3ccnc4c3c2N(C)C=C4)cc1			EC50			18.8 µM
CNCCC1CN(Cc2ccc(F)cc2)C(=O)c2c(O)c(=O)n(C(C)C)c(=O)n21		p24	EC95		MT-4	<10 µM
Cc1sccc1C(=S)Nc1ccc(Cl)c(C(=O)OC2CCCCC2)c1	RT-L100I	syncytia	EC50		CEM	0.085 µM
COc1ccc(S(=O)(=O)N(CCC(O)CN(CC(C)C)S(=O)(=O)c2ccccc2)CC2CCCC2)cc1		p24	EC90	IIIB	CEM	1 µM
C/C=C/COc1cc(NC(=S)c2ccoc2C)ccc1Cl	RT-E138K	syncytia	EC50		CEM	1.7 µM
O=C(C(=O)N1CCN(C(=O)c2ccccc2O)CC1)c1c[nH]c2ccccc12		RT activity	EC50	BRU	MT-2	<10 µM
C/C=C/CSc1cc(NC(=S)c2ccsc2C)ccc1Cl		syncytia	EC50	IIIB	CEM	0.017 µM
O=C(C(=O)N1CCN(C(=O)c2ccc(Cl)o2)CC1)c1c[nH]c2c(F)ccc(F)c12		luciferase	EC50		HeLa + HELA CD4+/CCR5	<10 µM
Cc1sccc1C(=S)Nc1ccc(Cl)c(OCCC(C)C)c1	RT-K103N	syncytia	EC50		CEM	0.262 µM
O=C1c2c(O)c(=O)n(C3CCCCC3N3CCOCC3)c(=O)n2CCN1Cc1ccc(F)cc1		p24	EC95		MT-4	<10 µM
O=C(Nc1ccc(Cl)c(C(=O)OC2CCCCC2)c1)c1ccccc1F	RT-Y181C	syncytia	EC50		CEM	13 µM
Cc1cn([C@H]2C=C[C@@H](CO)O2)c(=O)[nH]c1=O		RT activity	EC50	IIIB	PBMC	0.05 µM
Cc1ccsc1C(=S)Nc1ccc(Cl)c(C(=O)OC2CCCCC2)c1		syncytia	EC50	IIIB	CEM	0.225 µM
CC(C)CN(C[C@@H](O)[C@H](Cc1ccccc1)NC(=O)O[C@H]1CO[C@H]2OCC[C@H]21)S(=O)(=O)c1ccc2nc(N)n(C)c2c1		cytopathic effect / MTT	EC50	LAI WT	MT-4	0.251 µM
Cc1nc(CCCCCCC(=O)c2ccccc2)n2nc(NCCCCCCCCNCc3cn([C@H]4C=C[C@@H](CO)O4)c(=O)[nH]c3=O)ccc12		RT activity	EC50	Nevirapine-resistant	CEM + CEM-SS	0.18 µM
Cc1ccccc1C(=S)Nc1ccc(Cl)c(C(=O)OC(C)C)c1		syncytia	EC50	IIIB	CEM	0.513 µM

For reference, 8 entries again:

structure | changes | read by | endpoint | strain or isolate | cells | value
O=C(C(=O)N1CCN(C(=O)c2ccccc2O)CC1)c1c[nH]c2ccccc12 |  | RT activity | EC50 | BRU | MT-2 | <10 µM
CC(C)OC(=O)c1cc(NC(=S)c2cccs2)ccc1Cl | RT-E138K | syncytia | EC50 |  | CEM | 0.84 µM
O=c1[nH]c(=O)n([C@H]2C=C[C@@H](CO)O2)cc1CO |  | RT activity | EC50 | IIIB | MT-4 | 0.22 µM
CNCCC1CN(Cc2ccc(F)cc2)C(=O)c2c(O)c(=O)n(C(C)C)c(=O)n21 |  | p24 | EC95 |  | MT-4 | <10 µM
O=C(Nc1ccc(Cl)c(C(=O)OC2CCCCC2)c1)c1ccccc1F | RT-Y181C | syncytia | EC50 |  | CEM | 13 µM
Cc1cc(CNC(=O)c2nc3n(c(=O)c2O)CCN(C)CC3N(C)C(=O)C(=O)N(C)C)ccc1F |  | p24 | EC95 |  | MT-4 | <1 µM
CC1CN(C(=O)C(=O)c2c[nH]c3cccc(F)c23)CC(C)N1C(=O)c1ccccc1 |  | luciferase | EC50 |  | HeLa + HELA CD4+/CCR5 | <10 µM
CC(C)OC(=O)c1cc(NC(=S)c2ccsc2)ccc1Cl | RT-L100I | syncytia | EC50 |  | CEM | 13 µM

Conditions beyond the fields shown may differ between rows. An empty or dashed field is not shown. ECn: concentration that inhibits the pathogen or its effect by n%.